Anti-infective test results gathered from many reports (values: NIAID ChemDB through PubChem).

Common to all: tests in culture; species: HIV-1; cell line: Jurkat cells; endpoint: EC50

An empty or dashed field is not shown. Neighbouring rows are from separate reports. ECn: concentration that inhibits the pathogen or its effect by n%.

structure	strain or isolate	mutations	method	result
Cc1nnc(C(=O)NC(C)(C)c2nc(C(=O)NCc3ccc(F)cc3)c(O)c(=O)n2C)o1	NL4-3	+Vpx		0.007 µM
Nc1nc(N)c2ncn([C@H]3CO[C@@H](CO)O3)c2n1	IIIB		RT activity	1.37 µM
CC(C)=C1C=C(C(C)C)C(O)CC1	IIIB		p24	>0.1 µM
Cc1cn([C@H]2C[C@H](N=[N+]=[N-])[C@@H](CO)O2)c(=O)[nH]c1=O	NL4-3		p24 / ELISA	0.003 µM
Cc1cn([C@H]2C=C[C@@H](CO)O2)c(=O)[nH]c1=O	NL4-3	+Vpx		4.3 µM
CC(C)(C)NC(=O)[C@@H]1CN(Cc2cccnc2)CCN1C[C@@H](O)C[C@@H](Cc1ccccc1)C(=O)N[C@H]1c2ccccc2C[C@H]1O	NL4-3		luciferase	0.0475 µM
Nc1ccn([C@@H]2CO[C@H](CO)S2)c(=O)n1	IIIB		p24	1.8 µM
Cc1cn([C@H]2C[C@H](N=[N+]=[N-])[C@@H](CO)O2)c(=O)[nH]c1=O	LAV		RT activity	<0.5 µM
Nc1nc2c(ncn2[C@H]2CO[C@@H](CO)O2)c(=O)[nH]1	IIIB			0.34 µM
C[C@H](Cn1cnc2c(N)ncnc21)OCP(=O)(O)O	NL4-3	+Vpx		10.9 µM
COc1cc(Cc2cnc([NH][Sn]([CH3])([CH3])[NH]c3ncc(Cc4cc(OC)c(OC)c(OC)c4)c(N)n3)nc2N)cc(OC)c1OC			p24 / ELISA	0.003 µM
COc1ccc(-c2cncc3sc(C(N)=O)cc23)cc1	NL4-3		p24 / ELISA	0.0045 µM
CC(C)=CCOc1c2occc2cc2ccc(=O)oc12	NL4-3 Recombinant VSV-pseudotyped		luciferase	<25 µM
CCCCC/C=C\C/C=C\C/C=C\C/C=C\CCCC(=O)C(F)(F)F	NL4-3-Luc VSV pseudotyped		luciferase	~5 µM
Cc1cccc(C)c1OCC(=O)N[C@@H](Cc1ccccc1)[C@@H](O)C[C@H](Cc1ccccc1)NC(=O)[C@H](C(C)C)N1CCCNC1=O			PCR	0.003 µM
Nc1ccn([C@H]2CO[C@@H](CO)S2)c(=O)n1	IIIB		p24	3 µM
CCCCC/C=C\C/C=C\C/C=C\C/C=C\CCCC(=O)OC(CO)CO	NL4-3-Luc VSV pseudotyped		luciferase	>10 µM
CC(C)=CCc1c(O)c(C(=O)C(C)C)c(O)c2c(-c3ccccc3)cc(=O)oc12	NL4-3 Recombinant		luciferase	>1.25 µM
COc1cc2c(c(OC)c1OC)-c1c(cc3c(c1OC)OCO3)C[C@H](C)[C@H](C)C2			MTT	15 µM
CN=C1CN=C(c2ccc[nH]2)c2cc(Cl)ccc2N1	N1T		antigen	0.2 µM

2 of the rows above, restated:

| structure | strain or isolate | mutations | method | result |
|---|---|---|---|---|
| Cc1cccc(C)c1OCC(=O)N[C@@H](Cc1ccccc1)[C@@H](O)C[C@H](Cc1ccccc1)NC(=O)[C@H](C(C)C)N1CCCNC1=O |  |  | PCR | 0.003 µM |
| CC(C)=CCOc1c2occc2cc2ccc(=O)oc12 | NL4-3 Recombinant VSV-pseudotyped |  | luciferase | <25 µM |